Source: patent US12594289B2, “Potentiation of antibiotic effect” (The University of North Carolina at Chapel Hill, priority 2017, dated 2026)
Converted amounts (≈) assume the structure as drawn.

System: S. aureus
Assay: microbe, parasite or virus in culture
Format: cell-based, Staphylococcus aureus

NC[C@H]1O[C@H](O[C@H]2[C@H](O)[C@@H](O[C@H]3O[C@H](CO)[C@@H](O)[C@H](N)[C@H]3O)[C@H](N)C[C@@H]2N)[C@H](N)C[C@@H]1O [tobramycin]
day by which high level resistance to tobramycin was selected for: ≤ 10 days
MIC (Staphylococcus aureus, 624 h, read-out: tobramycin resistance level (MIC) reached): 100 µg/mL (≈ 214 µM)
